Results reported in patent publication US20100242341A1, “CORROSION AND MICROBIAL CONTROL IN HYDROCARBONACEOUS COMPOSITIONS” (priority 2007, published 2010).

Assay: Corrosion testing of metal coupons immersed in fuel/water
Settings: aminoalcohol 0.427%, 50° C.

SMILES: CCCCC(O)C(N)CC (stereo not drawn) [Example 3A4O, 3-amino-4-octanol]
- Corrosion (visual) (CI, Biodiesel 80%/water 20%): Yes
- Wt Loss (CI, Biodiesel 80%/water 20%): -0.0400 g
- Corrosion (visual) (CI, Diesel 80%/water 20%): Yes
- Wt Loss (CI, Diesel 80%/water 20%): -0.0008 g
- Corrosion (visual) (LCFGS, Biodiesel 80%/water 20%): No
- Wt Loss (LCFGS, Biodiesel 80%/water 20%): -0.0260 g
- Corrosion (visual) (LCFGS, Diesel 80%/water 20%): No
- Wt Loss (LCFGS, Diesel 80%/water 20%): -0.0024 g
- Corrosion (visual) (MCS, Biodiesel 80%/water 20%): No
- Wt Loss (MCS, Biodiesel 80%/water 20%): -0.0113 g
- Corrosion (visual) (MCS, Diesel 80%/water 20%): No
- Wt Loss (MCS, Diesel 80%/water 20%): 0.0000 g
